Pooled drug test results. Numbers come from NIAID ChemDB, via PubChem.

Common to all: tests in culture; organism: Candida albicans

Conditions beyond the fields shown may differ between rows. Two numbers with a dash give a range or band. ECn: concentration that inhibits the pathogen or its effect by n%. A number after MIC or MFC names an inhibition level or a share of isolates. Blank or dashed fields: not listed here.

| structure | read by | strain or isolate | read-out | result |
|---|---|---|---|---|
| CCc1ccc(NC2=C(Br)C(=O)c3ccccc3C2=O)cc1 |  |  | MIC | 25 µg/mL |
| CC(C)(C)OC(=O)N[C@@H](Cc1nccs1)C(=O)N(OCc1ccccc1)[C@@H](Cc1ccc(O)cc1)C(=O)N[C@@H](Cc1ccccc1)C(=O)OCc1ccccc1 |  | 7 isolates | MIC | >1000 µM |
| CCC1CCCC(CC)C(=O)NCCCC(CC)C(OC2OC(C)C(O)C(N)C2OC2OC(CO)C(O)C(O)C2O)CC1 |  | 12 strains | Mean MIC | ≥10.7 µg/mL |
| c1ccc(-c2c[nH]cc2C(c2ccc3ccccc3c2)n2ccnc2)cc1 |  | 33 strains | MIC50 | 4 µg/mL |
| C=C1CCN(C(C)C(O)(Cn2cncn2)c2ccc(F)cc2F)CC1 |  | KC-03 | MIC | <0.025 µg/mL |
| CCCCCOc1ccc(-c2ccc(-c3ccc(C(=O)N[C@H]4CCCNC(=O)[C@@H]5C[C@H](NCc6ccccc6)CN5C(=O)[C@H]([C@@H](C)O)NC(=O)[C@H](CCc5ccc(O)cc5)NC(=O)[C@@H]5C[C@@H](O)CN5C(=O)[C@H]([C@@H](C)O)NC4=O)cc3)cc2)cc1 |  | ATCC 10231 | MIC | 0.78 µg/mL |
| Nc1cccc2nc(CBr)c(=O)[nH]c12 |  |  | MIC | >200 µM |
| CC(C)CC(N)c1nc(C(=O)O)cs1 |  | 7 isolates | MIC | >1000 µM |
| NC(=NNc1ccccc1)c1cnccn1 | broth dilution |  | MIC | 32 µg/mL |
| Nc1[nH]c(=O)ncc1F |  | 315 | MIC | 0.03 µg/mL |
| N=C(N)c1ccc(/C=C/C=C/C=C/c2cc3cc(C(=N)N)ccc3o2)cc1 |  |  | MIC | 30 µg/mL |
| O=S(=O)(c1ccccc1)n1cnc(-c2cnccn2)n1 | broth dilution |  | MIC | >256 µg/mL |
| CC(C)CC(NC(=O)OC(C)(C)C)c1nc(C(=O)O)cs1 |  | 7 isolates | MIC | 203 µM |
| CC(=O)CCc1ccc2c(N=Nc3c([N+](=O)[O-])cc(C(=O)O)cc3[N+](=O)[O-])c(O)ccc2c1 |  | UBA 7 | MIC | 15.63 µg/mL |
| O=C1C(Cl)=C(Nc2ncccn2)C(=O)c2ccccc21 |  |  | MIC | 50 µg/mL |
| CCCCCOc1ccc(-c2ccc(-c3ccc(C(=O)N[C@H]4CCCNC(=O)[C@@H]5C[C@H](N)CN5C(=O)[C@H](CO)NC(=O)[C@H](CCc5ccc(O)cc5)NC(=O)[C@@H]5C[C@@H](O)CN5C(=O)[C@H]([C@@H](C)O)NC4=O)cc3)cc2)cc1 |  | ATCC 10231 | MIC | 0.1 µg/mL |
| O=C(NN1C(=O)/C(=C/c2cc3ccccc3nc2Cl)N=C1c1ccccc1)c1ccc(F)cc1 | broth dilution | MTCC 227 | MIC | 100 µg/mL |
| COc1ccc2nc(C(C)C)c(=O)[nH]c2c1Cl |  |  | MIC | >200 µM |
| COc1c(CN(C)C)cccc1C1OC(c2ccncc2)=NN1C(C)=Nc1cccc(F)c1 |  | MTCC 227 | MIC | 6.25 µg/mL |
| O=C(CCn1ccnc1)c1ccc(-c2ccccc2)cc1 | broth dilution | RTCC1024 | MIC | 4 µg/mL |
| CC(C)c1nc2ccc(Cl)c(Cl)c2[nH]c1=O |  |  | MIC | >200 µM |
| c1ccc(-c2ccc(C(c3c[nH]cc3-c3ccccc3)n3ccnc3)cc2)cc1 |  | 33 strains | MIC50 | 32 µg/mL |
| O=C(c1ccc2c(c1)oc(=O)n2CC1=NCCS1)c1ccccc1F |  |  | MIC | 75 µg/mL |
| N=C(N)c1ccc2oc(-c3ccc(C4=NCCN4)cc3)cc2c1 |  |  | MIC | >60 µg/mL |
| COc1ccc2ncc(=O)[nH]c2c1Cl |  |  | MIC | >200 µM |
| OC(CCn1ccnc1)c1ccc(Br)cc1 | broth dilution | RTCC1024 | MIC | 64 µg/mL |
| CC(C)c1nc2c(Cl)c(Cl)ccc2[nH]c1=O |  |  | MIC | >200 µM |
| C=C1CCN([C@H](C)[C@](O)(Cn2cncn2)c2ccc(F)cc2F)CC1 |  | KC-03 | MIC | <0.025 µg/mL |
| NC(N)=Nc1ccc(-c2cc3ccc(N=C(N)N)cc3s2)cc1 |  |  | MIC | 10 µg/mL |
| CC(C)CC1NC(=O)CC(CCCCCCCCC(C)O)OC(=O)C(CC(C)C)NC(=O)C(CC(C)C)NC(=O)C(CC(C)C)NC(=O)C(C(C)C)NC(=O)C(CC(=O)O)NC(=O)C(CC(C)C)NC1=O | absorbance | Clinical isolate | MIC | 2 µg/mL |
| OC(Cn1cncn1)(c1ccc(F)cc1)C(F)(F)c1cccs1 |  | ATCC 90028 | MIC | ≤0.125 µg/mL |
| CNC1=CC(=O)c2ccccc2C1=O |  |  | MIC | 6.3 µg/mL |
| CCC(O)/C=C/C=C/C=C/C(=O)OC[C@H]1O[C@@H](O[C@H]2[C@H](OC(=O)/C=C/C=C/CC(O)/C(C)=C/C=C/CCC(C)CC)[C@@H](O)[C@@]3(OCc4cc(O)cc(O)c43)O[C@@H]2CO)[C@H](O)[C@@H](O)[C@H]1O |  | ATCC 32354 | MIC | 1.6 µg/mL |
| COc1ccc2nc(C(C)C)c(=O)[nH]c2c1 |  |  | MIC | >200 µM |
| CN(C)CCCNC(=O)c1cc(NC(=O)c2cc(NC(=O)c3cc(NC(=O)c4nsc(NCCCCCCCN)c4Cl)cn3C)cn2C)cn1C |  | 38247 | MIC | 64 µg/mL |
| Cn1c(C(F)(F)C(O)(Cn2cncn2)c2ccc(F)cc2F)nc2ccccc21 |  | ATCC 90028 | MIC | 0.125 µg/mL |
| CCCCCOc1ccc(-c2ccc(-c3ccc(C(=O)N[C@H]4CCCNC(=O)[C@@H]5C[C@H](N)CN5C(=O)[C@H](CCCCN)NC(=O)[C@H](CCc5ccc(O)cc5)NC(=O)[C@@H]5C[C@@H](O)CN5C(=O)[C@H]([C@@H](C)O)NC4=O)cc3)cc2)cc1 |  | ATCC 38247 | MIC | 0.78 µg/mL |
| O=C(NN1C(=O)/C(=C/c2cc3ccccc3nc2Cl)N=C1c1ccccc1)c1cccc([N+](=O)[O-])c1 | broth dilution | MTCC 227 | MIC | 200 µg/mL |
| O=C(OCCCc1ccc(O)cc1)c1ccccc1 |  |  | EC50 | 5.36 µg/mL |
| COc1c(CN(C)C)cccc1C1OC(c2ccncc2)=NN1C(C)=Nc1ccc(F)cc1 |  | MTCC 227 | MIC | 3.12 µg/mL |
| CCc1ccc(-c2nc3cc(NC(=O)Cc4ccc(Cl)cc4)ccc3o2)cc1 |  | ATCC 10145 | MIC | 50 µg/mL |
| COc1ccc2[nH]c(=O)c(C(F)(F)F)nc2c1 |  |  | MIC | >200 µM |
| O=C1C(=O)c2ccccc2C(O)=C1Nc1cccc([N+](=O)[O-])c1 |  |  | MIC | 100 µg/mL |
| O=C(NN1C(=O)/C(=C/c2cc3ccccc3nc2Cl)N=C1c1ccccc1)c1ccc(Cl)cc1 | broth dilution | MTCC 227 | MIC | 200 µg/mL |
| Cc1nn(S(=O)(=O)c2ccccc2)c(C)c1C(F)(F)C(O)(Cn1cncn1)c1ccc(F)cc1F |  | ATCC 90028 | MIC | 2 µg/mL |
| Cn1cc(NC(=O)c2cc(NC(=O)c3cc(NC(=O)c4nsc(NCCCNc5ncccn5)c4Cl)cn3C)cn2C)cc1C(=O)NCCN1CCOCC1 |  | 38247 | MIC | >32 µg/mL |
| CC(C)CC(NC(=O)OC(C)(C)C)c1nc(C(=O)O)co1 |  | 7 isolates | MIC | 428 µM |
| Cn1cc(-c2ccccc2)c(C(c2ccc3ccccc3c2)n2ccnc2)c1 |  | 33 strains | Mean MIC | 211 µg/mL |
| CN(C)CCCNC(=O)c1cc(NC(=O)c2cc(NC(=O)c3cc(NC(=O)c4nsc(NCCCN(C)C)c4Cl)cn3C)cn2C)cn1C |  | 38247 | MIC | 32 µg/mL |
| CCCCCOc1ccc(-c2ccc(-c3ccc(C(=O)N[C@H]4CCCNC(=O)[C@@H]5C[C@H](N)CN5C(=O)[C@H](CCCN)NC(=O)[C@H](CCc5ccc(O)cc5)NC(=O)[C@@H]5C[C@@H](O)CN5C(=O)[C@H]([C@@H](C)O)NC4=O)cc3)cc2)cc1 |  | ATCC 38247 | MIC | 0.39 µg/mL |
| Cc1c(O)cccc1C(=O)N[C@@H](CSc1ccccc1)[C@H](O)CN1C[C@H]2CCCC[C@H]2C[C@H]1C(=O)NC(C)(C)C |  | I63D | MIC | >64 µg/mL |
| O=C(c1ccccc1)c1ccc2c(c1)oc(=O)n2CC1=NCCS1 |  |  | MIC | 50 µg/mL |
| CC(NC(=O)OC(C)(C)C)c1nc(C(=O)NN)cs1 |  | 7 isolates | MIC | 230–470 µM |
| CC1=C(Cl)C(O)=CC(=O)C12Oc1cc(O)c(Cl)c(C)c1C2=O | broth dilution | MTCC 227 | MIC | 500 µg/mL |
| CC(C)c1nc2c(N)cc(C(C)(C)C)cc2[nH]c1=O |  |  | MIC | >200 µM |
| O=C(c1ccc2c(c1)oc(=O)n2CC1=NCCS1)c1ccccc1Cl |  |  | MIC | 25 µg/mL |
| C(=C\c1cc2ccc(C3=NCCN3)cc2[nH]1)/c1ccc(Oc2ccc(C3=NCCN3)cc2)cc1 |  |  | MIC | 30 µg/mL |
| Cn1cc(NC(=O)c2cc(NC(=O)c3cc(NC(=O)c4nsc(NCCNc5ncccn5)c4Cl)cn3C)cn2C)cc1C(=O)NCCN1CCOCC1 |  | 38247 | MIC | >32 µg/mL |
| O=C1c2ccccc2CC1Cn1ccnc1 | broth dilution | RTCC1024 | MIC | >64 µg/mL |
| CNC1=C(Br)C(=O)c2ccccc2C1=O |  |  | MIC | 6.3 µg/mL |
| O=C(O)c1cc([N+](=O)[O-])c(N=Nc2ccc(O)c3ccccc23)c([N+](=O)[O-])c1 |  | UBA 7 | MIC | 13.02 µg/mL |
| Cn1nc(-c2cnccn2)n(N2CCOCC2)c1=S | broth dilution |  | MIC | >256 µg/mL |
| C[C@@H](c1ncncc1F)[C@](O)(Cn1cncn1)c1ccc(F)cc1F |  | 2038 (FLU-R) | MIC80 | 0.5 µg/mL |
| Cc1noc(C)c1C(F)(F)C(O)(Cn1cncn1)c1ccc(F)cc1F |  | ATCC 90028 | MIC | 0.125 µg/mL |
| CCOC(=O)c1csc(C(CC(=O)OC)NC(=O)OC(C)(C)C)n1 |  | 7 isolates | MIC | >3000 µM |
| c1ccc(-c2c[nH]cc2C(c2cccc3ccccc23)n2ccnc2)cc1 |  | 33 strains | MIC50 | 4 µg/mL |
| CCCCCCCCOc1ccc(N2CCN(c3ccc(C(=O)N[C@H]4CCCNC(=O)[C@@H]5C[C@H](N)CN5C(=O)[C@H]([C@@H](C)O)NC(=O)[C@H](CCc5ccc(O)cc5)NC(=O)[C@@H]5C[C@@H](O)CN5C(=O)[C@H]([C@@H](C)O)NC4=O)cc3)CC2)cc1 |  | ATCC 10231 | MIC | 0.2 µg/mL |
| O=C(NN1C(=O)/C(=C/c2cc3ccccc3nc2Cl)N=C1c1ccccc1)c1ccc(Cl)cc1O | broth dilution | MTCC 227 | MIC | 500 µg/mL |
| OC(Cn1cncn1)(c1ccc(F)cc1F)C(F)(F)c1nc2ccccc2o1 |  | ATCC 90028 | MIC | 0.25 µg/mL |
| N=Nc1cccc(Nc2c(Cl)c(O)c3ccccc3c2O)c1 |  |  | MIC | 50 µg/mL |
| Cn1cc(-c2ccccc2)c(C(c2cccc3ccccc23)n2ccnc2)c1 |  | 33 strains | Mean MIC | 16.27 µg/mL |
| CC(C)C(NC(=O)OC(C)(C)C)c1nc(C(N)=O)cs1 |  | 7 isolates | MIC | 429 µM |